Measured values as given in US9732087B2, “Diamino-pyridine, pyrimidine, and pyridazine modulators of the histamine H4 receptor” (JANSSEN PHARMACEUTICA NV, priority 2008, dated 2017).

Chains of the proteins cited; added tags and fusions are not shown. Lines headed by an entry give the natural chain unless they say otherwise; changes in a name come on top.
UniProt Q9H3N8: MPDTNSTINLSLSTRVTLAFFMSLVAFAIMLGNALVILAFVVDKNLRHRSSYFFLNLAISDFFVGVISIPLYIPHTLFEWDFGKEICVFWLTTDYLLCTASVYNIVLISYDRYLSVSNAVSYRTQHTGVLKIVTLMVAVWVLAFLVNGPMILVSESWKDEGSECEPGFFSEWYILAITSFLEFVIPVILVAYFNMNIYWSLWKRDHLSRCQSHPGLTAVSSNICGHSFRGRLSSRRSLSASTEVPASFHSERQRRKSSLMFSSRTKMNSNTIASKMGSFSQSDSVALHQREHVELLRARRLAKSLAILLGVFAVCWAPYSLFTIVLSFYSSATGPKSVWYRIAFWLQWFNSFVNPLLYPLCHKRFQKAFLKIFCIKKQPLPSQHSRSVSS

Columns and labels:
human H4 receptor [1] = target: T1, human H4 receptor (Homo sapiens (Human), UniProt Q9H3N8); assay: Binding assay on recombinant human histamine H4 receptor ([3H]histamine competition, SK-N-MC cell membranes)
Description: Binding Assay on Recombinant Human Histamine H4Receptor
Cell pellets from SK-N-MC cells stably or transiently transfected with human H4 receptor (NCBI accession No. AF312230) were used for the binding assays. Cell pellets were homogenized in 50 mM Tris/5 mM EDTA buffer and supernatants from an 800 g spin were collected and recentrifuged at 30,000 g for 30 min. Pellets were rehomogenized in 50 mM Tris/5 mM EDTA buffer. […] Membranes were harvested by rapid filtration using the 96 well Brandel system (Table 1, Brandel) or a cell harvester (Table 1, Cell Harvester) using a Whatman GF/C filter or filter plates treated with 0.5% polyethylenimine (PEI), and washed 4 times with ice-cold 50 mM Tris/5 mM EDTA buffer. Filters were then dried, mixed with scintillant and radioactive counts were determined. […] Where activity is shown as greater than (>) a particular value, the value is the highest concentration tested.

human H4 receptor [2] = target: T1, human H4 receptor; type: cell-based; conditions: apparent pA2 from Schild plot; antagonism of histamine inhibition of forskolin-stimulated cAMP
Description: SK-N-MC cell lines were created that express a reporter gene construct and the human H4 receptor full-coding region (NCBI accession No. AF312230). The reporter gene was β-galactosidase under the control of cyclic AMP-responsive elements. Cells were plated in 96-well plates the night before the assay. Histamine was used as the agonist for all assay. For the H4 receptor, the inhibition of forskolin-stimulated cAMP production was measured. For determination of antagonist activity, compounds were added 10 min prior to the addition of agonist, which was added directly to the cell medium. Forskolin (5 μM final concentration) was added 10 min after the addition of histamine. Cells were returned to the incubator for 6 h at 37° C. The medium was then aspirated, and the cells were washed with […] of phosphate-buffered saline (PBS). Cells were lysed with 25 μL of 0.1X assay buffer (10 mM sodium phosphate, pH 8, 0.2 mM MgSO4, and 0.01 mM MnCl2) and incubated at rt for 10 min. Cells were then incubated for 10 min with 100 μL of 1X assay buffer containing 0.5% (v/v) Triton X-100 and 40 mM β-mercaptoethanol. […] Color was quantitated on a microplate reader by measuring the absorbance at 570 nm. […] Dose ratios were calculated from individual concentration-response curves of agonists at three to five antagonist concentrations. Apparent pA2 values were calculated using a Schild plot (ND=not determined).

[3] = membranes harvested with cell harvester, [3H]histamine 10 nM, average of results, read-out: Cell Harvester Ki

Compound	Ki (human H4 receptor [1]; Cell Harvester Ki (nM))	Ki (human H4 receptor [1]; read-out: Brandel Ki)	Ki (human H4 receptor [1]; [3])	also measured
CN[C@@H]1CCN(c2ccnc(NC3CCCC3)c2)C1 [Example 2, N-Cyclopentyl-4-[(3R)-3-(methylamino)pyrrolidin-1-yl]pyridin-2-amine]	3.83 nM	–	–	–
CN[C@H]1CCN(c2ccnc(NCC(C)C)c2)C1 [Example 15, 4-[(3S)-3-(Methylamino)pyrrolidin-1-yl]-N-(2-methylpropyl)pyridin-2-amine]	149 nM	54.3 nM	–	–
CN[C@@H]1CCN(c2ccnc(NCC(C)C)c2)C1 [Example 22, 4-[(3R)-3-(Methylamino)pyrrolidin-1-yl]-N-(2-methylpropyl)pyridin-2-amine]	1.5 nM	1.7 nM	–	–
CN[C@@H]1CCN(c2cnnc(NC3CC4CCC3C4)c2)C1 (stereo partly drawn) [Example 96, N-Bicyclo[2.2.1]hept-2-yl-5-[(3R)-3-(methylamino)pyrrolidin-1-yl]pyridazin-3-amine]	–	–	1 nM	Ki (human H4 receptor [1]; membranes harvested with 96 well Brandel system, [3H]histamine 10 nM, average of results, read-out: Brandel Ki): 1 nM
CN[C@H]1CCN(c2ccnc(NC3CCCC3)c2)C1 [Example 228, N-Cyclopentyl-4-[(3S)-3-(methylamino)pyrrolidin-1-yl]pyridin-2-amine]	31.8 nM	–	–	pA2 (human H4 receptor [2]): 7.4
CN[C@H]1CCN(c2cnnc(NC3CC4CCC3C4)c2)C1 (stereo partly drawn) [Example 381, N-Bicyclo[2.2.1]hept-2-yl-5-[(3S)-3-(methylamino)pyrrolidin-1-yl]pyridazin-3-amine]	–	–	5.51 nM	–

Where two headings read alike, the source gives them in different places.
